In paper PMC5109037, “Harnessing Nature’s Diversity: Discovering organophosphate bioscavenger characteristics among low molecular weight proteins” (2016):

How the values were obtained:
Smu. 1393c [1] = target: T1, Smu. 1393c (Streptococcus mutans, UniProt Q8DTF4); test: Omethoate hydrolysis (0-18 mM) followed by Ellman assay in 50 mM bis-tris-propane pH 7.4 with 5 uM enzyme, Michaelis-Menten fit.; settings: read-out: Km (mM), Omethoate
Smu. 1393c [2] = target: T1, Smu. 1393c; test: p-Nitrophenyl acetate hydrolysis followed by absorbance at 405 nm, Michaelis-Menten fit, no inhibitor.
[3] = target: Smu. 1393c expressed with zinc (Streptococcus mutans, UniProt Q8DTF4); settings: read-out: Km (mM), Paraoxon

CNC(=O)CSP(=O)(OC)OC
Km (Smu. 1393c [1]): 2.6 mM

CC(=O)Oc1ccc([N+](=O)[O-])cc1
Km (Smu. 1393c [2]): 6.7 mM

CCOP(=O)(OCC)Oc1ccc([N+](=O)[O-])cc1
Km [3]: 0.0055 mM
